Data as given in PMC8263607, “Precise spatiotemporal control of voltage-gated sodium channels by photocaged saxitoxin” (2021).
“And” between values parts separate entries of the source, which are not always exact repeats. Equal values may be shown once.

Columns and labels:
corpus callosum = experiment: Coumarin control in corpus callosum slice (LFP, CSD); details: 500 nM, individual slices
[1] = cited from earlier work

In the case of `O=C(O)CN(CC(=O)O)c1ccc2c(CO)cc(=O)oc2c1`, the “Amplitude of peak CSD, N1” value (corpus callosum) is reported as 10.6 and 6.6 and 11, the “Amplitude of peak CSD, N2” value (corpus callosum) is reported as 13 and 21.9 and 38 and the “Amplitude of peak LFP, N2” value (corpus callosum) is reported as 0.4 and 0.47 and 0.57. For the same compound, the “Time of peak, N1” value (corpus callosum) was 1.4 and 1.43 and 1.28 and the “Time of peak, N2” value (corpus callosum) was 3.78 and 3.41 and 2.58.

For `O=c1cc(CO)c2cc(Br)c(O)cc2o1`, the pKa [1] is listed as 6.2.
